Compound potency records, mixed from different reports. Data source: NIAID ChemDB in PubChem.

Shared fields: growth or infection tests; organism: HIV-1; method: cytopathic effect / XTT; measure: EC50

ECn: concentration that inhibits the pathogen or its effect by n%.

C[C@@H]1[C@@H](OC(=O)N[C@@H](CSc2ccccc2)[C@H](O)CN2C[C@H]3CCS[C@H]3C[C@H]2C(=O)NC(C)(C)C)CCS1(=O)=O ; strain: HXB2 ; cell line: CEM + CEM-SS ; value: <0.045 µM
Cc1cc(S(=O)(=O)Nc2nc(N)nc(N3CCOCC3)n2)c(S)cc1Cl ; strain: RF ; cell line: CEM ; value: 81.1 µM
C[C@H]1[C@@H](OC(=O)N[C@@H](CSc2ccccc2)[C@H](O)CN2C[C@H]3CCS[C@H]3C[C@H]2C(=O)NC(C)(C)C)CCS1(=O)=O ; strain: HXB2 ; cell line: CEM + CEM-SS ; value: <0.031 µM
S=C(NCCc1ccccn1)Nc1ccc(Br)cn1 ; strain: IIIB ; cell line: MT-4 ; value: 0.016 µM
CCc1c(C(=O)c2cc(C)cc(C)c2)n(CC2CC=CC2)c(=O)[nH]c1=O ; setting: clinical isolate ; strain: CLADE C ; cell line: PBMC ; value: 0.002 µM
Cc1cc(C)cc([Se]c2c(C(C)C)c(=O)[nH]c(=O)n2COCc2ccccc2)c1 ; strain: RF ; cell line: CEM + CEM-SS ; value: 0.031 µM
Cc1cc(S(=O)(=O)Nc2nnc3cc(C(F)(F)F)cc(C)n23)c(S)cc1Cl ; strain: RF ; cell line: CEM ; value: >200 µM
CC(C)c1c([Se]c2ccccc2)n(COCc2ccccc2)c(=S)[nH]c1=O ; strain: RF ; cell line: CEM + CEM-SS ; value: 0.046 µM
Cc1cn([C@H]2C[C@H](N=[N+]=[N-])[C@@H](CO)O2)c(=O)[nH]c1=O ; changes: RT-K65R H221Y ; strain: Site-directed mutant ; cell line: MT-2 ; value: 0.182 µM
CNNC(=NS(=O)(=O)c1cc(C#N)c(NNC)cc1S)NNC ; strain: RF ; cell line: CEM ; value: >110 µM
S=C(S)N1CCOCC1 ; cell line: CEM ; value: 16 µM
C[C@H]1OCC[C@H]1OC(=O)N[C@@H](CSc1ccccc1)[C@H](O)CN1C[C@H]2CCS[C@H]2C[C@H]1C(=O)NC(C)(C)C ; strain: HXB2 ; cell line: CEM + CEM-SS ; value: <2.562 µM
Cc1cc(S(=O)(=O)Nc2nnc3c4scc(C)c4ncn23)c(S)cc1Cl ; strain: RF ; cell line: CEM ; value: >126 µM
O=C(O)CCNC(=O)c1ccccc1SSc1ccccc1C(=O)NCCC(=O)O ; cell line: CEM ; value: 7.8 µM
Cc1cn([C@H]2C[C@H](N=[N+]=[N-])[C@@H](CO)O2)c(=O)[nH]c1=O ; strain: RF ; cell line: CEM + CEM-SS ; value: 0.0003 µM
CCCCn1cnnc1NS(=O)(=O)c1cc(C)c(Cl)cc1SCC(=O)O ; strain: RF ; cell line: CEM ; value: >200 µM
Cc1ccnc2c1NC(=O)c1cccnc1N2C1CC1 ; changes: RT-L100I ; strain: 118(RT-L100I) ; cell line: MT-4 ; value: 1.1 µM
C/C=C/CSc1cc(NC(=S)c2ccsc2C)ccc1Cl ; strain: WEJO ; cell line: PBMC ; value: 0.5 µM
COc1ccc(Nc2nc(NS(=O)(=O)c3cc(C)c(Cl)cc3S)n[nH]2)cc1 ; strain: RF ; cell line: CEM ; value: 169 µM
CN(C(=O)c1ccccc1SSc1ccccc1C(=O)N(C)c1ccc(S(N)(=O)=O)cc1)c1ccc(S(N)(=O)=O)cc1 ; cell line: CEM ; value: 22 µM
O=S(=O)(Nc1nnc2c3ccccc3ccn12)c1ccc(F)cc1S ; strain: RF ; cell line: CEM ; value: 34.3 µM
CC(C)CN(C[C@@H](O)[C@H](Cc1ccccc1)NC(=O)[C@H](CC(N)=O)NC(=O)c1ccc2ccccc2n1)C(=O)NC(C)(C)C ; strain: RF ; cell line: CEM ; value: 0.02 µM
CC(C)[C@H]1[C@@H](OC(=O)N[C@@H](Cc2ccccc2)[C@H](O)CN2C[C@H]3CCS[C@H]3C[C@H]2C(=O)NC(C)(C)C)CCS1(=O)=O ; strain: HXB2 ; cell line: CEM + CEM-SS ; value: <0.077 µM
CCOC(=O)CCNC(=O)c1ccccc1SSc1ccccc1C(=O)NCCC(=O)OCC ; cell line: CEM ; value: >40 µM
Cc1cc(SC2=C(O)C[C@@](CCc3ccsc3)(C(C)C)OC2=O)c(C(C)(C)C)cc1C ; strain: IIIB ; cell line: CEM + CEM-SS ; value: 0.14 µM
CC(C)[C@H](NC(=O)N(C)Cc1ccccn1)C(=O)N[C@@H](Cc1ccccc1)[C@H](O)[C@H](O)[C@H](Cc1ccccc1)NC(=O)[C@@H](NC(=O)N(C)Cc1ccccn1)C(C)C ; strain: RF ; cell line: CEM ; value: 0.05 µM
Cc1cn([C@H]2C[C@H](N=[N+]=[N-])[C@@H](CO)O2)c(=O)[nH]c1=O ; changes: RT-L100I ; strain: 118(RT-L100I) ; cell line: MT-4 ; value: 0.005 µM
O=S(=O)(c1ccccc1)c1ccccc1 ; changes: RT-Y181C ; strain: IIIB ; cell line: CEM + CEM-SS ; value: 114.1 µM
CCCc1cc(=O)oc2c3c(c4c(c12)OC(C)(C)C=C4)O[C@@H](C)[C@H](C)[C@@H]3O ; changes: RT-Y181C K101E ; strain: UC10-resistant (RT Y181C K101E) ; cell line: CEM + CEM-SS ; value: 4.4 µM
CCOCn1c([Se]c2cc(C)cc(C)c2)c(C(C)C)c(=O)[nH]c1=O ; strain: RF ; cell line: CEM + CEM-SS ; value: 0.0047 µM
Cc1occc1C(=S)Nc1ccc(Cl)c(/C=N/OC(C)(C)C)c1 ; strain: IIIB ; cell line: MT-2 ; value: 0.2 µM
Cc1cc(S(=O)(=O)/N=C(/NN)NNc2cccc(C(F)(F)F)n2)c(S)cc1Cl ; strain: RF ; cell line: CEM ; value: >54 µM
Cc1c(Sc2ccccc2)n(COCCO)c(=O)[nH]c1=O ; changes: RT-P236L ; strain: IIIB ; cell line: CEM + CEM-SS ; value: >325 µM
CC(C)[C@@H]1[C@H](OC(=O)N[C@@H](Cc2ccccc2)[C@H](O)CN2C[C@H]3CCCC[C@H]3C[C@H]2C(=O)NC(C)(C)C)CCS1(=O)=O ; strain: HXB2 ; cell line: CEM + CEM-SS ; value: <0.085 µM
Cc1cn([C@H]2C[C@H](N=[N+]=[N-])[C@@H](CO)O2)c(=O)[nH]c1=O ; strain: MN ; cell line: CEM + CEM-SS ; value: 0.004 µM
CCc1c(Sc2ccccn2)n(COCc2ccccc2)c(=O)[nH]c1=O ; changes: RT-A98G V108I ; strain: IIIB ; cell line: CEM + CEM-SS ; value: 0.9 µM
C[C@H](Cn1cnc2c(N)ncnc21)OCP(=O)(O)O ; strain: HXB2-D WT ; cell line: MT-2 ; value: 3.6 µM
CC(C)(C)NC(=O)[C@@H]1C[C@@H]2SCC[C@@H]2CN1C[C@@H](O)[C@H](CSc1ccccc1)NC(=O)O[C@@H]1CCS(=O)(=O)C1 ; strain: HXB2 ; cell line: CEM + CEM-SS ; value: <0.059 µM
Fc1cccc(F)c1C1SCc2nc3ccccc3n21 ; strain: C ; cell line: CEM + CEM-SS ; value: 1.14 µM
Nc1ccn([C@H]2CC[C@@H](CO)O2)c(=O)n1 ; strain: RF ; cell line: CEM + CEM-SS ; value: 0.19 µM
CC(C)=CCN1Cc2cc(Cl)cc3[nH]c(=S)n(c23)C[C@@H]1C ; strain: IIIB ; cell line: MT-4 ; value: 0.21 µM

The last 5 rows once more:

C[C@H](Cn1cnc2c(N)ncnc21)OCP(=O)(O)O ; strain: HXB2-D WT ; cell line: MT-2 ; value: 3.6 µM
CC(C)(C)NC(=O)[C@@H]1C[C@@H]2SCC[C@@H]2CN1C[C@@H](O)[C@H](CSc1ccccc1)NC(=O)O[C@@H]1CCS(=O)(=O)C1 ; strain: HXB2 ; cell line: CEM + CEM-SS ; value: <0.059 µM
Fc1cccc(F)c1C1SCc2nc3ccccc3n21 ; strain: C ; cell line: CEM + CEM-SS ; value: 1.14 µM
Nc1ccn([C@H]2CC[C@@H](CO)O2)c(=O)n1 ; strain: RF ; cell line: CEM + CEM-SS ; value: 0.19 µM
CC(C)=CCN1Cc2cc(Cl)cc3[nH]c(=S)n(c23)C[C@@H]1C ; strain: IIIB ; cell line: MT-4 ; value: 0.21 µM

Lines come from different laboratories, so protocols vary.